System: microorganisms already present in the seawater
Assay: Marine BODIS biodegradation test in natural seawater
Details: for biodegraded over 28 days: natural seawater, 20° C.±1° C.

Molecule	maximum biodegradation during the study (42 day study) [%]	biodegraded over 28 days [%]	biodegraded on day 42 (test extended for an additional 14 days, day 42, final day of study) [%]	maximum biodegradation during the 70 day study (test extended for an additional 42 days (70 days)) [%]
CCCCCCC(CC=CCCCCCCCC(=O)O)OC(=O)CCCCCCCC(=O)O (centres unmarked) [Azelaic ricinoleate, azelaic ricinoleate]	58	57	57	
C36 dimer acid [reference compound]		12		22

Source: patent US10253236B2, “Environmental friendly well treatment fluids comprising an ester” (AMRIL AG, priority 2013, dated 2019)
